The test system of the experiment is Staphylococcus aureus. Conditions: isolate d20A1.

In general, MIC refers to the smallest concentration in the dilution series that meets the test's criterion for growth inhibition.

Sequence GENTAMICIN registered an MIC of 0.5 µg/mL.

Values taken from ChEMBL document CHEMBL1157072, “Efflux-mediated bis-indole resistance in Staphylococcus aureus reveals differential substrate specificities for MepA and MepR” (Bioorg Med Chem, 2010).
